For at least one entry, the source does not settle the construct or the ends of the probe.

What all share (assay): EMSA
Data set [1] addresses OpaR (Vibrio parahaemolyticus) (UniProt Q79YV4). The note with it: recombinant protein; residues 1-204; probe letters rebuilt from the primers and the genome.
In data set [2] the test system is TftR (TetR family) + OpaR. The note with it: OpaR titrated at constant TftR, higher-molecular-weight complexes; recombinant protein; probe letters rebuilt from the primers and the genome.
The test system of data set [3] is TftR (TetR family) (Vibrio parahaemolyticus). To be noted: 0-400 nM TftR; recombinant protein; probe letters rebuilt from the primers and the genome.

For “TAATTGGTGTTCTGGCCAATGGTAATTGAACGCCAAAAAAGAACGATAAAGATCAGAATTGACAATTTGTAATCCAACAATTTCCGCTTCCAGTTGCAGCGTATTCGTTTCTGGATGAAAGATGAAATGAACCTTCAAGTGATCATCAAAAGCTAAGCTTAGTTCATTGTCCGTCAAATGCAGTTCAGGCAAGCCTATTTGATGAGCAAACTTCTGTAAAACCTCATCGATAGTTTGGCGTGCTGACATAGAAACAGTCCTTTTGAGAATTTTATCGGGAAACATATTCGATATCGTGGGGTGTGTTTATCAATTTTGGTTGTTAGTTATTATATTTTGGCCGGAAACCCAGAATTGACTCCTTGCTTCTAATCTTACAAATGAGTGCTGGTGCATATAAAGATTAACGGTTATTAAATTCTATTATGGTGGGATTTTGGTTTATATCGACAAGCGATGAAGAATTAGAATTGTGTTATCTTAAAAATTAAATACTATGTTAATTACGTGTTGTACGTGGAACGTTATTGCTGTCCATCTGTAGAATAAATATAAGCCGAAAATTTAAACGTACACATAAGAATTTGTGTAAAAATAAATCATAATAAGACGATAAAAATAATTTATGGGAGCCTAAATGAAAAGCAGTAAGTGGGCCGGTCTTATCGGTTTAATGTTA (double strand) [PexsB]”, the binding result in data set [1] was “binds”.

For the sequence “TCCATCGTGTTGCCGTAGCTTGATGCCGTCATAAAATCAACTTGATGAGTCAGTTCAATAGCACGCGCTAGGTCGGCCATAAATACAAAAGAACCACGCAACAAGCCAACCAAAACTAGGTCTTCACTGCCTTGGTAACGCTCTGTAATTTGTTTGCCTAATTCACGAATTCGTTCCTGAACTTCTTGCTCAGAAATCATGACTTCTATTGTATGTTTCATACTGTGCTCAATTTAGTTTGTGGGTTGAGGTAGGTCGCACGCAAACGATCACCTAATCTTACGGCGTGTAGTGTATCACCACGAAGAGTGGGTTGAAAGTCACATCCTTTTGCGGAAAATTCTTGGGAGCGCTGCCAAATTTTCGAAAGTTTACAGCAAAACTTATCAATAATAATGACATTACTGTCTATAAATTATCCATCAGATGTTGACCTTGTGCATATGCACCATTACACTCATCACTGCTTAAAGCAATTATTAAAATAATCAATTAGGGGGTTACCCCCAACAACAACTCAAATGGCAAGGAAAATGGATATGGACTCAATTGCAAAGAGACCTAGAACTAGGCTTTCTCCTCTTAAACGTAAGCAACAACTCATGGAAATCGCGTTAGAAGTATTTGCACGCCGTGGTATTGGCCGTGGTGGTCACGCAGATATTG (double strand) [PopaR]”, the binding result in data set [2] and in data set [3] was “binds” in each case.

The values are drawn from PMC12691590.
